Laboratory results from US20190142864A1, “METHODS AND SYSTEMS, FOR INTERFERING WITH VIABILITY OF BACTERIA AND RELATED ANTIMICROBIALS AND COMPOSITIONS” (CALIFORNIA INSTITUTE OF TECHNOLOGY, priority 2017, published 2019).

System: P. aeruginosa aggregate biofilms
Experiment: Oxygen profiling of treated ABBA samples
Type: cell-based, Pseudomonas aeruginosa
Settings: after 6 hr treatment

NC[C@H]1O[C@H](O[C@H]2[C@H](O)[C@@H](O[C@H]3O[C@H](CO)[C@@H](O)[C@H](N)[C@H]3O)[C@H](N)C[C@@H]2N)[C@H](N)C[C@@H]1O [tobramycin, reference compound]
oxygen concentrations at even the greatest depths (40 μg/ml tobramycin): around 50 % of atmospheric values | oxygen profile of treated aggregate biofilms (40 μg/ml tobramycin, 10 mM chlorate): never become anoxic | oxygen consumption rates for equivalent SYTO-9-stained cells (depths of 150 to 200 μm): 0.27 μM/μm
